Test results taken from patent publication US5821046.

Key:
[1] = molecular target: HIV-1 Tat (Human immunodeficiency virus 1) (UniProt P04608); assay: competition with a labelled probe; settings: purified recombinant protein; label: 32P
[2] = molecular target: HIV-1 Tat (Human immunodeficiency virus 1) (UniProt P04608); assay: EMSA; settings: wild-type affinity; purified recombinant protein; variant of HIV-1 TAR RNA 59-mer (UUU bulge)

Sequence | IC50 [1] [nM] | binding result [2]
GGGUCUCUCUGGUUAGACCAGAUUUGAGCCUGGGAGCUCUCUGGCUAACUAGGGAACCC [HIV-1 TAR RNA 59-mer (UUU bulge)] | 64 | 
GGGUCUCUCUGGUUAGACCAGAUUUGAGCUCCCAGGCUCUCUGGCUAACUAGGGAACCC [SSA chimera] |  | binds
GGGUUCCCUAGUUAGACCAGAUUUGAGCCUGGGAGCUCUCUGGCUAACCAGAGAGACCC [ASS chimera] |  | binds

The exact form of at least one protein or probe is not confirmed.
